Measured values from several laboratories, pooled; numbers as filed in NIAID ChemDB.

All rows: growth or infection tests; species: HIV-1; method: cytopathic effect / MTT; endpoint: inhibition

Conditions beyond the fields shown may differ between rows. Inhibition is in % at the dose shown (toxicity tests: loss of growth or viability). An empty or dashed field is not shown.

SMILES | cells | changes | dose | strain | result
CC1(C)[C@@H](O[C@H]2O[C@H](C(=O)O)[C@@H](O)[C@H](O)[C@H]2O[C@@H]2O[C@H](C(=O)O)[C@@H](O)[C@H](O)[C@H]2O)CC[C@]2(C)[C@H]3C(=O)C=C4[C@@H]5C[C@@](C)(C(=O)O)CC[C@]5(C)CC[C@@]4(C)[C@]3(C)CC[C@@H]12 | MT-4 | - | 620 µM | IIIB | 81.9%
CCc1c(Cc2c(Cl)cccc2Cl)nc(SC/C=C/c2ccc(C#N)cc2)[nH]c1=O | MT-4 | RT-Y181C | 54.82 µM | NNRTI-resistant | 41%
Nc1nc(=O)n([C@@H]2CC[C@H](CO)O2)cc1F | MT-2 | - | 0.4 µM | IIIB | 36%
CC(=O)O[C@H]1CC[C@H](O)CC[C@@H](C)/C=C/[C@@]2(C)CC[C@@H](C(C)(C)OC(C)=O)[C@H]12 | MT-2 | - | 6.25 µM | - | 69%
NCCS | C8166 | - | 200 µM | IIIB | 100%
CC(C)CCCCCCCCCCCN(C)OP(=O)(O)N(CC(N)=O)P(=O)(O)OC1C(OC[C@H]2O[C@@H](n3ccc(=O)[nH]c3=O)[C@H](O)[C@@H]2O)=C(CO)C(O)C1O | MOLT-4 | - | 1.5 µM | IIIB | 96%
CC(CO[C@@H]1O[C@H](COS(=O)(=O)O)[C@@H](OS(=O)(=O)O)[C@H](O[C@@H]2O[C@H](COS(=O)(=O)O)[C@@H](OS(=O)(=O)O)[C@H](O[C@@H]3O[C@H](COS(=O)(=O)O)[C@@H](OS(=O)(=O)O)[C@H](O[C@@H]4O[C@H](COS(=O)(=O)O)[C@@H](OS(=O)(=O)O)[C@H](O[C@@H]5O[C@H](COS(=O)(=O)O)[C@@H](OS(=O)(=O)O)[C@H](OS(=O)(=O)O)[C@H]5OS(=O)(=O)O)[C@H]4OS(=O)(=O)O)[C@H]3OS(=O)(=O)O)[C@H]2OS(=O)(=O)O)[C@H]1OS(=O)(=O)O)CC(C)(C)C | MT-4 | - | 0.001 µg/mL | IIIB | 40%
O=P(O)(O)OP(=O)(O)OP(=O)(O)O | CEM | - | 100 µg/mL | IIIB | 2.4%
CCCCCCCCCCCCCCCCOCC(COP(=O)(O)O)OCCCCCCCCCCCCCCCC | MT-4 | - | 5 µM | IIIB | 4%
Nc1ccn([C@@H]2O[C@H](CO)C=C2F)c(=O)n1 | - | RT-M184V | 1.8 µM | - | 90%
Cc1ccnc2c1NC(=O)c1cccnc1N2C1CC1 | MT-2 | - | 5 µM | - | 99%
CC1(C)[C@@H](O[C@H]2O[C@H](CO)[C@@H](O)[C@H](O)[C@H]2O[C@@H]2O[C@H](CO)[C@@H](O)[C@H](O)[C@H]2O)CC[C@]2(C)C3C=CC4=C5C[C@@](C)(CO)CC[C@]5(C)CC[C@@]4(C)[C@]3(C)CC[C@@H]12 | MT-4 | - | 160 µM | IIIB | 56.7%
Nc1ccn([C@H]2CC[C@@H](CO)O2)c(=O)n1 | MT-2 | - | 1.2 µM | IIIB | 63%
COc1ncnc(NS(=O)(=O)c2ccc(N=C3C(=O)N(CN4CCOCC4)c4ccccc43)cc2)c1OC | MT-4 | - | 2 µg/mL | LAI | 12%

For reference, 2 entries again:

{"SMILES": "Cc1ccnc2c1NC(=O)c1cccnc1N2C1CC1", "cells": "MT-2", "dose": "5 µM", "result": "99%"}
{"SMILES": "CC(=O)O[C@H]1CC[C@H](O)CC[C@@H](C)/C=C/[C@@]2(C)CC[C@@H](C(C)(C)OC(C)=O)[C@H]12", "cells": "MT-2", "dose": "6.25 µM", "result": "69%"}